Anti-infective test results gathered from many reports (values: NIAID ChemDB through PubChem).

Common to all: tests on isolated targets

Percent inhibition refers to the dose given; in toxicity tests it is the harm to the cells.

SMILES,read-out,strain or isolate,protein,dose,agent,value
CCCC(CCC)Oc1cc(C(=O)O)ccc1NC(C)=O,IC50,H1N9,Neuraminidase,,Influenza A virus,230 µM
CN(C)CCCNC(=O)[C@H](Cc1ccc(O)cc1)NC(=O)c1ccc2c(c1)nc(-c1ccoc1)n2C1CCCCC1,IC50,,RNA-dependent RNA polymerase,,Poliovirus,>25 µM
Cc1nc(N)c2ncn([C@@H]3O[C@H](COC(=O)c4ccc(S(=O)(=O)F)cc4)[C@@H](O)[C@H]3O)c2n1,inhibition,,NTPase/helicase,300 µM,Japanese encephalitis virus,52%
CC(=O)Nc1c(O)cc(C(=O)O)cc1[N+](=O)[O-],IC50,N2 (A/TOKYO/67),Neuraminidase,,Influenza A virus,1000 µM
CC(=O)NC(C(=O)N1CCCCC1C)[C@H]1CC(C(=O)O)C[C@@H]1N=C(N)N,IC50,,Neuraminidase,,Influenza A virus (H6N2),0.24 µM
O=C(N[C@@H](Cc1cc2ccccc2[nH]1)C(=O)O)c1ccc2c(c1)nc(-c1ccoc1)n2C1CCCCC1,IC50,,RNA-dependent RNA polymerase,,Poliovirus,>25 µM
COc1cccc2c1C(=O)c1c(O)c3c(c(O)c1C2=O)C[C@@](O)(C(C)=O)C[C@@H]3O[C@H]1C[C@H](N)[C@H](O)[C@H](C)O1,IC50,,NTPase/helicase,,Japanese encephalitis virus,100 µM
O=C(N[C@@H](Cc1c[nH]c2ccc(O)cc12)C(=O)O)c1ccc2c(c1)nc(-c1ccccc1)n2C1CCCCC1,IC50,,RNA-dependent RNA polymerase,,Poliovirus,>25 µM
O=C(OC[C@H]1O[C@@H](n2cnc3c(=O)[nH]cnc32)[C@H](O)[C@@H]1O)c1ccc(S(=O)(=O)F)cc1,inhibition,,NTPase/helicase,300 µM,Japanese encephalitis virus,<0.5%
CCCN(CCC)C(=O)C(NC(C)=O)[C@H]1CC(C(=O)O)C[C@@H]1N=C(N)N,IC50,,Neuraminidase,,Influenza A virus (H6N2),0.06 µM
COc1ccc(CNC(=O)c2ccc3c(c2)nc(-c2ccccn2)n3[C@H]2CCCC[C@@H]2O)cc1OC,IC50,,RNA-dependent RNA polymerase,,Poliovirus,>25 µM
CC(=O)NC(C(=O)N1CC(C)CC(C)C1)[C@H]1CC(C(=O)O)C[C@@H]1N=C(N)N,IC50,,Neuraminidase,,Influenza A virus (H6N2),3.5 µM
O=C(N[C@@H](Cc1c[nH]c2ccccc12)C(=O)O)c1ccc2c(c1)nc(-c1ccoc1)n2C1CCCCC1,IC50,,RNA-dependent RNA polymerase,,Poliovirus,>25 µM
CC(=O)NC(C(=O)NC(C)C)[C@H]1CC(C(=O)O)C[C@@H]1N=C(N)N,IC50,,Neuraminidase,,Influenza A virus (H6N2),1.34 µM
CCC(CC)Nc1cc(C(=O)O)ccc1NC(C)=O,IC50,H1N9,Neuraminidase,,Influenza A virus,25 µM

A second listing of 2 rows from above:

SMILES | read-out | strain or isolate | protein | dose | agent | value
COc1ccc(CNC(=O)c2ccc3c(c2)nc(-c2ccccn2)n3[C@H]2CCCC[C@@H]2O)cc1OC | IC50 |  | RNA-dependent RNA polymerase |  | Poliovirus | >25 µM
CN(C)CCCNC(=O)[C@H](Cc1ccc(O)cc1)NC(=O)c1ccc2c(c1)nc(-c1ccoc1)n2C1CCCCC1 | IC50 |  | RNA-dependent RNA polymerase |  | Poliovirus | >25 µM

An empty or dashed field is not shown. ICn is the concentration giving n% inhibition. Rows are shuffled and stem from different studies.